Compound potency records, mixed from different reports. Data source: NIAID ChemDB in PubChem.

All rows: whole-cell or culture tests; organism: Mycobacterium tuberculosis

Inhibition is in % at the dose shown (toxicity tests: loss of growth or viability). Neighbouring rows are from separate reports. MIC bound comes from a single tested concentration. A number after MIC or MFC names an inhibition level or a share of isolates. Blank or dashed fields: not listed here. ECn is the concentration giving n% inhibition of infection, replication or growth.

| SMILES | strain or isolate | cell line | method | endpoint | tested at | value |
|---|---|---|---|---|---|---|
| CCCCN1C(=O)C(C)S/C1=N\N=C1/C(=O)Nc2ccccc21 | H37Rv |  |  | EC50 |  | >12 µg/mL |
| Cn1c2cc(Cl)c(Cl)cc2nc2cc3c(cc21)c(Cl)c(=O)c1ccccc13 | H37Rv |  | BACTEC | MIC bound |  | >12.5 µg/mL |
| O=C(c1ccncc1)N1N=CCC1(O)C(F)(F)F | RGH103 |  |  | MIC |  | 48 µM |
| CC(=O)OC[C@]12CCC(C)=C[C@H]1O[C@@H]1[C@@]3(O)N=C(C)O[C@H]3[C@@]2(C)[C@]12CO2 | H37Rv |  | BACTEC | MIC bound |  | >12.5 µg/mL |
| O=C(Cc1cccs1)N/N=C/c1cccnc1 | H37Rv (ATCC 27294) |  | resazurin | MIC |  | >100 µg/mL |
| O=C(Nc1sc(-c2ccc(OCc3c(Cl)cccc3Cl)cc2)cc1C(=O)O)c1ccccc1Cl | H37Rv |  | resazurin | MIC |  | 96 µM |
| Cc1ccnc(NS(=O)(=O)c2ccc(N=Nc3ccc(N)nc3N)cc2)n1 | H37Rv |  | BACTEC | inhibition | 12.5 µg/mL | 18% |
| COCOc1ccc(OCOC)c(NCc2cnc3nc(N)nc(N)c3c2C)c1 | H37Ra |  |  | MIC |  | 8 µg/mL |
| CCc1ccc(NC(=S)NCCC(=O)O)cc1 | H37Rv |  |  | MIC |  | 1.3 µg/mL |
| O=C1CSc2nc3ccc(Br)cc3c(=O)n21 | H37Rv |  |  | MIC bound |  | >6.25 µg/mL |
| CC1=C(O)C(C)(Cc2cccc(C(=O)c3ccccc3)c2)SC1=O | H37Rv |  |  | MIC50 |  | 50 µM |
| O=C(Nc1sc(-c2ccc(OCc3ccc(Cl)c(Cl)c3)cc2)cc1C(=O)O)c1ccc(Cl)cc1 | H37Rv |  | resazurin | EC50 |  | 28.21 µM |
| CCCCOc1ccc(NC(=S)NCCC(=O)O)cc1 | H37Rv |  |  | MIC |  | 2.5 µg/mL |
| COC1=C2CC(C)CC(OC)C(O)C(C)/C=C(\C)C(OC(N)=O)C(OC)/C=C\C=C(/C)C(=O)NC(=C(C=NC(C)(C)C)C1=O)C2=O | TAC-R |  |  | MIC |  | >12.5 µg/mL |
| CCNC(=S)N=Nc1c(O)[nH]c2ccc(Br)cc12 | H37Rv |  |  | MIC |  | >12.5 µg/mL |
| O=C(Cc1cccs1)N/N=C/c1ccccc1 | H37Rv (ATCC 27294) |  | resazurin | MIC |  | >100 µg/mL |
| CCN(CC)CCNc1ccc(CO)c2sc3ccc(O)cc3c(=O)c12 | H37Rv |  | BACTEC | inhibition | 12.5 µg/mL | 14% |
| O=C(O)c1cc(-c2ccc(OCc3c(Cl)cccc3Cl)cc2)sc1NCc1ccccc1Cl | H37Rv |  | resazurin | MIC |  | 60 µM |
| Cc1cc(C)c(Cn2cc(/C=N\N=C(/N)c3ccc4ccccc4n3)c3ccccc32)c(C)c1 | H37RV (INH RMP OFL-S) |  |  | MIC |  | >128 µg/mL |
| CC1(C)NC(=S)C(C)(C)N1N=O | H37Rv |  | BACTEC | inhibition | 12.5 µg/mL | 0% |
| Cc1ccc(-c2cnnc(N3CCC(c4cccc(F)c4)C3)n2)o1 | H37Rv |  |  | MIC |  | 47.9 µM |
| CCc1cc(C(N)=S)ccn1 | 1 LAB strain (TH1314-RES) |  |  | MIC |  | 10 µg/mL |
| C=C/C(C)=C/[C@@]1(C)SC(=O)C(C)=C1O | H37Rv |  |  | MIC |  | 240 µM |
| C=CCn1c(-c2ccccc2)cs/c1=N\N=C1/C(=O)Nc2ccc(Br)cc21.O | H37Rv |  |  | EC50 |  | >12 µg/mL |
| CCCCCCCCCCCCCOc1ccc(S(=O)(=O)/N=C(\N)NC(N)=NCCCCCCCCCCCC)cc1.Cl | H37Rv |  | BACTEC | MIC bound |  | >12.5 µg/mL |
| CCCC(C)Oc1ccc(N2C(=O)CCNC2=S)cc1 | H37Rv |  |  | MIC |  | 5 µg/mL |
| S=C1NC2=C(CSC/C2=C/c2ccccc2)C(c2ccccc2)N1 | H37Rv |  | BACTEC | MIC bound |  | >12.5 µg/mL |
| CCCCOc1ccc(OC)c(NCc2cnc3nc(N)nc(N)c3c2C)c1 | H37Ra |  |  | MIC |  | 32 µg/mL |
| CCCCCOc1ccc(N2C(=O)CCNC2=S)cc1 | H37Rv |  |  | MIC |  | 5 µg/mL |
| CC(C)=CCCC(C)CCC1(C)SC(=O)C(C)=C1O | H37Rv |  |  | MIC50 |  | 43 µM |
| COc1ccc(N2C(=O)CCNC2=S)cc1 | H37Rv |  |  | MIC |  | 1.3 µg/mL |
| CCN1C(=O)CS/C1=N\NC(=O)Cc1csc2nc(-c3ccc(Br)cc3)cn12 | H37Rv |  |  | MIC |  | >6.25 µg/mL |
| Nc1ccc(C(=O)O)c(O)c1 |  |  |  | MIC |  | 1.5 µg/mL |
| CCOc1ccc(OC)c(NCc2cnc3nc(N)nc(N)c3c2C)c1 | H37Ra |  |  | MIC |  | 16 µg/mL |
| COc1ccc(/C=N/NC(=O)Cc2cccs2)cc1 | H37Rv (ATCC 27294) |  | resazurin | MIC |  | >100 µg/mL |
| CCCCOc1ccc(OCCC)c(NCc2cnc3nc(N)nc(N)c3c2C)c1 | H37Ra |  |  | MIC |  | >64 µg/mL |
| CCCCn1c(C)c(C(=O)O)s/c1=N\N=C1/C(=O)Nc2ccccc21 | H37Rv |  |  | MIC |  | >12.5 µg/mL |
| CCN1C[C@H](C)O[C@@H](O[C@H]2[C@H](C)[C@@H](O[C@@H]3O[C@H](C)CC(=O)[C@H]3O)[C@@H](C)C[C@](C)(OC(=O)N3C[C@@H](C)O[C@@H](C)C3)C(=O)[C@H](C)[C@H](OC(=O)CC(C)C)[C@@H](C)[C@@H]([C@@H](C)CO[C@@H]3O[C@H](C)[C@@H](O)[C@@H](OC)[C@H]3OC)OC(=O)[C@@H]2C)C[C@H]1C | H37Rv |  | resazurin | MIC |  | 1.12 µM |
| CCOc1ccc(OC)cc1NCc1cnc2nc(N)nc(N)c2c1C | H37Ra |  |  | MIC |  | 4 µg/mL |
| CCCCNC(=S)S | H37Rv |  | BACTEC | MIC bound |  | ≤12.5 µg/mL |
| CCNC(=S)NNC(=O)Cc1csc2nc(-c3ccc(Br)cc3)cn12 | H37Rv |  |  | inhibition | 6.25 µg/mL | 16% |
| CC(C)=CCC(/C=N/N=C(N)N)C(C)C | H37Rv |  | resazurin | inhibition | 6.25 µg/mL | 82% |
| N/C(=N\N=C/c1cn(Cc2ccccc2Br)c2ccccc12)c1ccccn1 | H37RV (INH RMP OFL-S) |  |  | MIC |  | 8 µg/mL |
| O=C(Nc1sc(-c2ccc(OCc3c(Cl)cccc3Cl)cc2)cc1C(=O)O)c1cccc(Cl)c1 | H37Rv |  | resazurin | MIC |  | 6.6 µM |
| O=C(Cc1cccs1)N/N=C/c1ccc(Cl)cc1 | H37Rv (ATCC 27294) |  | resazurin | MIC |  | >100 µg/mL |
| COc1c(OP2(=S)OCC(C)(C)CO2)cnn(C2CCCCC2)c1=O | H37Rv |  | BACTEC | inhibition | 12.5 µg/mL | 27% |
| CC1S/C(=N/N=C2\C(=O)Nc3ccccc32)N(C2CCCCC2)C1=O | H37Rv |  |  | MIC |  | >12.5 µg/mL |
| CCCOc1ccc(OC)c(NCc2cnc3nc(N)nc(N)c3c2C)c1 | H37Ra |  |  | MIC |  | 8 µg/mL |
| CCCCN1C[C@H](C)O[C@@H](O[C@H]2[C@H](C)[C@@H](O[C@@H]3O[C@H](C)CC(=O)[C@H]3O)[C@@H](C)C[C@](C)(OC(=O)N3C[C@@H](C)O[C@@H](C)C3)C(=O)[C@H](C)[C@H](OC(=O)CC(C)C)[C@@H](C)[C@@H]([C@@H](C)CO[C@@H]3O[C@H](C)[C@@H](O)[C@@H](OC)[C@H]3OC)OC(=O)[C@@H]2C)C[C@H]1C | H37Rv |  | resazurin | MIC |  | 1.44 µM |
| CC(C)=CCC/C(C)=C/CC1(C)C(=O)SC(C)C1=O | H37Rv |  |  | MIC |  | 60 µM |
| N/C(=N\N=C/c1cn(Cc2ccccc2Cl)c2ccccc12)c1ccccn1 | H37RV (INH RMP OFL-S) |  |  | MIC |  | 32 µg/mL |
| O=C(CSc1nc2ccccc2c(=O)n1-c1ccccc1)N=Nc1c(O)[nH]c2ccccc12 | H37Rv |  |  | MIC |  | >12.5 µg/mL |
| C=CCNc1sc(-c2ccc(OCc3c(Cl)cccc3Cl)cc2)cc1C(=O)O | H37Rv |  | resazurin | MIC |  | 14.7 µM |
| C[C@@H](O)[C@H]1C(=O)N2C(C(=O)O)=C(SCCN=CN)C[C@H]12 | Isolate 1 |  |  | MIC |  | 4 µg/mL |
| O=C(O)C1=CO[C@@H](O[C@@H]2O[C@H](CO)[C@@H](O)[C@H](O)[C@H]2O)[C@H]2[C@@H]1C=C[C@]2(O)CO | H37Rv |  | BACTEC | inhibition | 12.5 µg/mL | -20% |
| O=C(Cc1cccs1)N/N=C/c1cccc(Cl)c1 | H37Rv (ATCC 27294) |  | resazurin | MIC |  | >100 µg/mL |
| C=CCN1C(=O)C(C)S/C1=N\N=C1/C(=O)Nc2ccccc21 | H37Rv |  |  | MIC |  | >12.5 µg/mL |
| O=C1NC(=O)c2nccnc21 | H37Rv |  | BACTEC | inhibition | 12.5 µg/mL | 14% |
| COc1ccccc1/C=N/NC(=O)Cc1cccs1 | H37Rv (ATCC 27294) |  | resazurin | MIC |  | >100 µg/mL |
| NC(=O)c1cccnc1 | H37Rv |  | BACTEC | MIC bound |  | >12.5 µg/mL |
| CCCNC(=S)NNC(=O)Cc1csc2nc(-c3ccc(Br)cc3)cn12 | H37Rv |  |  | MIC |  | >6.25 µg/mL |
| CC[C@@H](CO)NCCN[C@@H](CC)CO |  |  |  | MIC |  | 1.5 µg/mL |
| CCCCCNc1sc(-c2ccc(OCc3c(Cl)cccc3Cl)cc2)cc1C(=O)O | H37Rv |  | resazurin | EC50 |  | 52.55 µM |
| CC1(C)S[C@@H]2[C@H](NC(=O)[C@H](N)c3ccc(O)cc3)C(=O)N2[C@H]1C(=O)O | Isolate 1 |  |  | MIC |  | >16 µg/mL |
| O=C(c1ccncc1)N1N=C(c2ccco2)CC1(O)C(F)(F)F | RGH102 |  |  | MIC |  | 38.46 µM |
| O=C(Cc1cccs1)N[C@@H]1C(=O)N2C(C(=O)[O-])=C(C[n+]3ccccc3)CS[C@H]12 | H37Rv |  |  | MIC |  | >16 µg/mL |
| CCC(C)[C@@H]1NC(=O)[C@@H](CC(C)C)NC(=O)[C@H](CC(C)C)NC(=O)[C@H](Cc2c[nH]c3ccccc23)NC(=O)[C@@H](CCCN)NC(=O)[C@H](CC(=O)O)NC1=O | H37Rv | Macrophage |  | EC50 |  | 0.8 µM |
| CO[C@H]1/C=C/O[C@@]2(C)Oc3c(C)c(O)c4c(O)c(c5c(c4c3C2=O)NC2(CCN(CC(C)C)CC2)N=5)=NC(=O)/C(C)=C\C=C\[C@H](C)[C@H](O)[C@@H](C)[C@@H](O)[C@@H](C)[C@H](OC(C)=O)[C@@H]1C |  |  |  | MIC |  | 0.5 µg/mL |
| C=CCn1c(-c2ccccn2)n[nH]c1=S | H37Rv |  | BACTEC | MIC |  | ≥12.5 µg/mL |
| CC(C)Oc1ccc(N2C(=O)CCNC2=S)cc1 | H37Rv |  |  | MIC |  | 2.5 µg/mL |
| CCOC(=O)C(=O)N(CC(=O)OC)C(=O)Cc1ccccc1 | H37Rv |  | BACTEC | inhibition | 12.5 µg/mL | 0% |
| CC1=NN(C(=O)c2ccncc2)C(O)(C(F)(F)F)C1 | H37Rv |  |  | MIC |  | 5.71 µM |
| Cc1cc(C)c(Cn2cc(/C=N\N=C(/N)c3ccccn3)c3ccccc32)c(C)c1 | H37RV (INH RMP OFL-S) |  |  | MIC |  | 128 µg/mL |
| CC(=O)OCC1=C(C(=O)O)N2C(=O)[C@@H](NC(=O)Cc3cccs3)[C@H]2SC1 | Isolate 1 |  |  | MIC |  | >16 µg/mL |
| CC(C)N=c1cc2n(-c3ccc(Cl)cc3)c3ccccc3nc-2cc1Nc1ccc(Cl)cc1 |  |  |  | MIC |  | 0.15 µg/mL |
| CCCCN=C(N=Nc1c(O)[nH]c2ccccc12)SCC(=O)c1ccc([N+](=O)[O-])cc1 | H37Rv |  |  | inhibition | 12 µg/mL | 99% |
| O=C(Cc1csc2nc(-c3ccc(Br)cc3)cn12)NNC(=S)Nc1ccc(Br)cc1 | H37Rv |  |  | inhibition | 6.25 µg/mL | 29% |
| N/C(=N\N=C/c1c[nH]c2ccccc12)c1ccccn1 | H37RV (INH RMP OFL-S) |  |  | MIC |  | 64 µg/mL |
| COC(=S)SSC(=S)NCCN(CCNC(=S)SSC(=S)OC)C(=S)SSC(=S)OC | H37Rv |  | BACTEC | MIC bound |  | >12.5 µg/mL |
| CC(=O)N(O)CCCP(=O)(O)O | Dxr |  |  | MIC |  | >500 µg/mL |
| CCCCCCC/C=C/C(=O)OC1C(OC2C(OC(CCCCCCC)CC(=O)OC(CCCCCCC)CC(=O)O)OC(C)C(O)C2O)OC(C)C(O)C1O | H37Rv |  | BACTEC | inhibition | 12.5 µg/mL | 13% |
| CCn1cc(C(=O)O)c(=O)c2cc(F)c(N3CCNC(C)C3)c(F)c21 | 5 strains (wild type) |  |  | MBC |  | 4 µg/mL |
| COc1cccc2c1cc([N+](=O)[O-])c1c(C(=O)O)cc3c(c12)OCO3 | H37Rv |  | BACTEC | MIC |  | ≥128 µg/mL |
| O=C1CCNC(=S)N1C1CCCCC1 | H37Rv |  |  | MIC |  | 2.5 µg/mL |